Assays:
[1] = target: SNAP-25 (endogenous, hamster HIT-T15 cells), Syrian Golden Hamster; experiment: cell-based or functional assay; conditions: scale: amount of insulin released per 1x10^6 cells per hour
[2] = target: VAMP-2 (endogenous, hamster HIT-T15 cells), Syrian Golden Hamster; experiment: cell-based or functional assay; conditions: scale: amount of insulin released per 1x10^6 cells per hour

| Substance | Insulin Release from HIT-T15 cells, 5.6 mM Glucose (Low) [1] | Insulin Release from HIT-T15 cells, 25.2 mM Glucose (High) [1] | Insulin Release from HIT-T15 cells, 5.6 mM Glucose (Low) [2] | Insulin Release from HIT-T15 cells, 25.2 mM Glucose (High) [2] |
| --- | --- | --- | --- | --- |
| GFP-LC/A fusion protein | 3.2 | 4.5 | – | – |
| GFP-LC/B fusion protein | – | – | 3.4 | 5.5 |
| GFP-LC/E fusion protein | 4.2 | 4.4 | – | – |

Source: patent US20120207742
